A mixed list of measured activities; the numbers were collected in NIAID ChemDB.

Common to all: whole-cell or culture tests; species: HIV-1; read by: cytopathic effect / XTT; measure: EC50

Rows are shuffled and stem from different studies. ECn: concentration that inhibits the pathogen or its effect by n%. Two numbers with a dash give a range or band. Blank or dashed fields: not listed here.

compound,strain or isolate,cell line,mutations,value
C=C1C(=O)[C@@]23CC[C@H]4[C@@](C)(CCC[C@@]4(C)C(=O)O)[C@@H]2CC[C@@H]1C3,RF,CEM + CEM-SS,-,0.5 µg/mL
C=Cc1c(C)c2cc3[nH]c(cc4nc(cc5nc(cc1[nH]2)C(C)=C5CCC(=O)OC)C(CCC(=O)OC)=C4C)c(C)c3C=C,IIIB,MT-2,-,48.9 µg/mL
Nc1nc2c(ncn2[C@H]2C=C[C@@H](CO)C2)c(=O)[nH]1,IIIB,MT-2,-,0.45 µM
CC(=O)Nc1ccc(Cl)cc1S(=O)(=O)n1ccc(C(C)=O)c1,IIIB,MT-4,-,>200 µM
CC(C)=CCOc1cc(NC(=S)c2ccsc2C)ccc1Cl,E BPTU-resistant (RT Y181C),CEM + CEM-SS,RT-Y181C,0.2 µM
COc1ccc([C@@H]2c3ccccc3S(=O)(=O)N2C)cc1,RF,CEM + CEM-SS,-,>200 µM
CCOC(=O)c1cccn1S(=O)(=O)c1cc(Cl)ccc1NC=O,IIIB,MT-4,-,1 µM
O=c1cc(-c2cccc3c2Sc2ccccc2S3)oc(N2CCOCC2)c1,RT-L74V M184V,C8166,-,5.2 µM
C=Cc1cccc([C@H]2c3ccccc3S(=O)(=O)N2C)c1,RF,CEM + CEM-SS,-,0.9 µM
O=S(=O)(Nc1nnc2c3ccccc3ccn12)c1ccc(F)cc1S,RF,CEM,-,13.9 µM
Cc1cc(C)cc(Oc2c(C(C)C)c(=O)[nH]c(=O)n2CCC2=CCCC2)c1,RF,CEM + CEM-SS,-,0.42 µM
Nc1nc2c(ncn2[C@H]2CO[C@@H](CO)O2)c(=O)[nH]1,-,MT-2,RT-A98S F116Y Q151M T215Y,18 µM
Cc1c(O)cccc1C(=O)N[C@@H](Cc1ccccc1)C(O)CN1C[C@H]2CCS[C@H]2C[C@H]1C(=O)NC(C)(C)C,HXB2,CEM + CEM-SS,-,0.024 µM
CCCCCC=C(c1cc(Cl)c(OC)c(C(=O)O)c1)c1cc(Cl)c(OC)c(C(=O)O)c1,-,CEM,-,2.46–100 µM
C[C@@H]1O[C@H]2O[C@H]3[C@@H](OC[C@@H](O)[C@@H]3O)OC(=O)[C@]34CCC(C)(C)C[C@@]3(C)C3=CC[C@@]5(C)[C@@](C)(CC[C@@H]6[C@](C)(CO)[C@@H](O[C@@H]7O[C@H](CO)[C@@H](O)[C@H](O)[C@H]7O[C@@H]7O[C@@H](C(=O)C[C@](C)(O)CC(=O)O[C@@H]1[C@@H](O[C@@H]1OC[C@@H](O)[C@H](O)[C@H]1O)[C@H]2O)[C@H](O)[C@H](O)[C@H]7O)[C@@H](O)C[C@@]65C)[C@]3(C)CC4,MN,H9,-,24.9 µg/mL
Cc1cc(S(=O)(=O)Nc2nnc3c4ccccc4cnn23)c(S)cc1Cl,RF,CEM,-,3.6 µM
COCCOc1nc(N)nc2c1ncn2[C@H]1C=C[C@@H](CO)C1,IIIB,MT-2,-,20 µM
O=C(O)c1ccc(-c2c3nc(c(-c4ccc(C(=O)O)cc4)c4ccc([nH]4)c(-c4ccc(C(=O)O)cc4)c4nc(c(-c5ccc(C(=O)O)cc5)c5ccc2[nH]5)C=C4)C=C3)cc1,IIIB,MT-2,-,0.37 µg/mL
NC(=O)CCNC(=O)c1ccccc1SCc1ccccc1,IIIB,CEM,-,34.9 µM
Cc1c(O)cccc1C(=O)N[C@@H](CSc1ccccc1)[C@H](O)CN1C[C@H]2SCC[C@H]2C[C@H]1C(=O)NC(C)(C)C,SN 123,CEM,-,0.004 µM
CC1=C(CCC(=O)O)c2cc3[nH]c(cc4[nH]c(cc5nc(cc1n2)C(CCC(=O)O)=C5CC(=O)O)c(CCC(=O)O)c4CC(=O)O)c(CCC(=O)O)c3CC(=O)O,IIIB,MT-2,-,9.2 µg/mL
CC(C)(C)NC(=O)[C@@H]1CN(Cc2cccnc2)CCN1C[C@H](O)[C@@H](CSc1ccccc1)NC(=O)c1cccc2ncccc12,SN 123,CEM,-,0.149 µM
CCCCOc1nc(N)nc2c1ncn2[C@H]1C=C[C@@H](CO)C1,IIIB,MT-2,-,5.21 µM
CCOC(=O)c1cccn1S(=O)(=O)c1cc(Cl)ccc1NC(=O)c1ccc(Cl)cc1,IIIB,MT-4,-,25 µM
CCCCCCCCCCCCCCCCC(c1ccc(O)c(C(=O)O)c1)c1ccc(O)c(C(=O)O)c1,-,CEM,-,3.29–32.9 µM
Cc1cc(Cl)cc(S)c1S(=O)(=O)Nc1nnc2c3ccccc3cnn12,RF,CEM,-,12.6 µM
CCCOc1nc(N)nc2c1ncn2[C@@H]1C=C[C@H](CO)C1,IIIB,MT-2,-,3.08 µM
COc1cc(N=Nc2cc(S(=O)(=O)O)cc3cc(S(=O)(=O)O)cc(O)c23)c(C)cc1Nc1nc(Nc2ccncc2)nc(Nc2ccncc2)n1,IIIB,MT-2,-,28.52 µM
CCOC(=O)c1cccn1S(=O)(=O)c1cc(Cl)ccc1NC(=O)CC,IIIB,MT-4,-,1 µM
Cc1cn([C@@H]2CO[C@H](CO)[C@H]2CO)c(=O)[nH]c1=O,RF,CEM + CEM-SS,-,0.8 µM
C=Cc1c(C)c2cc3c(C=C)c(C)c(cc4nc(cc5nc(cc1[nH]2)C(C)=C5CCC(=O)O)C(CCC(=O)O)=C4C)n3C,IIIB,MT-2,-,0.89 µg/mL
COc1cc(N=Nc2cc(S(=O)(=O)O)cc3cc(S(=O)(=O)O)cc(O)c23)c(C)cc1Nc1nc(Nc2ncncc2OC)nc(Nc2ncncc2OC)n1,IIIB,MT-2,-,>80 µM
CCOC(=O)c1cccn1S(=O)(=O)c1cc(Cl)ccc1NC(=O)CSC,IIIB,MT-4,-,0.5 µM
CCCCCC=C(c1cc(Br)c(OC)c(C(=O)OC)c1)c1cc(Br)c(OC)c(C(=O)OC)c1,-,CEM,-,0.272–49.7 µM
CC1=C(CCC(=O)O)c2cc3nc(cc4[nH]c(cc5[nH]c(cc1n2)c(C)c5C(O)CO)c(C)c4C(O)CO)C(C)=C3CCC(=O)O,IIIB,MT-2,-,38.2 µg/mL
CCCCCC=C(c1cc(Cl)c(OC)c(C(=O)OC)c1)c1cc(Cl)c(OC)c(C(=O)OC)c1,-,CEM,-,10.1–20.8 µM
Cc1cc(C)cc(C(=O)c2c(C(C)C)c(=O)[nH]c(=O)n2CC2=CCCC2)c1,-,CEM + CEM-SS,RT-K103N,1.6 µM
CCOC(=O)c1cccn1S(=O)(=O)c1cc(Cl)ccc1NC(=O)CN1CCCC1,IIIB,MT-4,-,1.9 µM
Nc1nc(N)c2ncn([C@H]3CO[C@@H](CO)O3)c2n1,-,MT-2,RT-L74V,38 µM
CCOC(=O)c1cccn1S(=O)(=O)c1cc(Cl)ccc1NC(=O)CN1CCOCC1,IIIB,MT-4,-,2.4 µM
C[C@@H](Cn1cnc2c(=O)[nH]c(N)nc21)OCP(=O)(O)O,LAV-Bru,CEM + CEM-SS,-,12 µM
CC(C)=CCOc1cc(NC(=S)c2ccoc2C)ccc1Cl,NL4-3 (RT L100I),CEM + CEM-SS,RT-L100I,0.4 µM
CCOC(=O)c1cccn1S(=O)(=O)c1cc(Cl)ccc1NS(=O)(=O)c1ccc(Cl)cc1,IIIB,MT-4,-,>17 µM

Again, the opening 5 rows:

compound | strain or isolate | cell line | mutations | value
C=C1C(=O)[C@@]23CC[C@H]4[C@@](C)(CCC[C@@]4(C)C(=O)O)[C@@H]2CC[C@@H]1C3 | RF | CEM + CEM-SS | - | 0.5 µg/mL
C=Cc1c(C)c2cc3[nH]c(cc4nc(cc5nc(cc1[nH]2)C(C)=C5CCC(=O)OC)C(CCC(=O)OC)=C4C)c(C)c3C=C | IIIB | MT-2 | - | 48.9 µg/mL
Nc1nc2c(ncn2[C@H]2C=C[C@@H](CO)C2)c(=O)[nH]1 | IIIB | MT-2 | - | 0.45 µM
CC(=O)Nc1ccc(Cl)cc1S(=O)(=O)n1ccc(C(C)=O)c1 | IIIB | MT-4 | - | >200 µM
CC(C)=CCOc1cc(NC(=S)c2ccsc2C)ccc1Cl | E BPTU-resistant (RT Y181C) | CEM + CEM-SS | RT-Y181C | 0.2 µM